Anti-infective test results gathered from many reports (values: NIAID ChemDB through PubChem).

Common to all: tests on isolated targets

Blank or dashed fields: not listed here.

SMILES	tested at	read by	target	species	strain or isolate	endpoint	value
O=C(O)C(O)P(=O)(O)O	-	-	RNA-dependent RNA polymerase	Influenza virus	-	IC50	>500 µM
COCON1C(=O)[C@H]([C@H](OS(C)(=O)=O)c2ccc(F)cc2)N(Cc2ccc(OC)cc2)[C@@H](CC(C)C)C1=O	-	-	Transcriptase	Influenza A virus	-	IC50	>200 µM
CC(C)[C@H](C(=O)NC(=S)NC(=O)NC(C)(C)C)c1ccc(Cl)cc1	-	-	Neuraminidase	Influenza A virus	H1N1	IC50	0.26 µM
CC(C(=O)O)P(=O)(O)O	-	-	RNA-dependent RNA polymerase	Influenza virus	-	IC50	>500 µM
COCON1C(=O)/C(=C/C(C)C)N(Cc2ccc(OC)cc2)[C@@H](CC(C)C)C1=O	-	-	Transcriptase	Influenza A virus	-	IC50	>200 µM
CCC(CC)Nc1cc(C(=O)O)ccc1N1C(=O)CCC1(CN)CO	-	-	Neuraminidase	Influenza A virus	Subtype N1	IC50	0.88 µM
O=C(O)CP(=O)(O)O	-	-	RNA-dependent RNA polymerase	Influenza virus	-	IC50	300 µM
CC(=O)N[C@H]1[C@H]([C@H](O)[C@H](O)CO)OC(C(=O)O)=C[C@@H]1N	-	-	Sialidase	Influenza A virus	A/Brazil/11/78 (H1N1)	IC50	0.13 µM
COCON1C(=O)/C(=C/c2ccc(OC)cc2)N(Cc2ccc(OC)cc2)[C@@H](Cc2ccccc2)C1=O	-	-	Transcriptase	Influenza A virus	-	IC50	>200 µM
CC(=O)Nc1c(O)cc(C(=O)O)cc1[N+](=O)[O-]	-	-	Neuraminidase	Influenza B virus	Memphis/3/89	IC50	750 µM
CCC(CC)Nc1cc(C(=O)O)ccc1N1C(=O)CCC1(CO)CCN	-	-	Neuraminidase	Influenza A virus	Subtype N1	IC50	180 µM
CC(N)C12CC3CC(CC(C3)C1)C2	200 µg/mL	nucleotide incorporation	Virion transcriptase	Influenza A virus	A/PR/1/74 RNP	inhibition	10%
O=P(O)(O)P(=O)(O)O	-	-	RNA-dependent RNA polymerase	Influenza virus	-	IC50	>500 µM
CC(C)(C)NC(=O)NC(=S)NC(=O)c1ccc(-c2ccc([N+](=O)[O-])cc2)o1	-	-	Neuraminidase	Influenza A virus	H1N1	IC50	4.2 µM
NC(N)=N[C@H]1C=C(C(=O)O)O[C@@H]([C@H](O)[C@H](O)CO)C1	-	-	Influenza B sialidase	Influenza B virus	Victoria	IC50	>400 µM
CC(C)(C)NC(=O)NC(=S)NC(=O)c1ccccc1	-	-	Neuraminidase	Influenza A virus	H1N1	IC50	1.1 µM
COCON1C(=O)/C(=C/C(C)C)N(Cc2ccc(OC)cc2)[C@@H](Cc2ccccc2)C1=O	-	-	Transcriptase	Influenza A virus	-	IC50	>200 µM
COC(=O)NC(=S)NC(=O)NC(C)(C)C	-	-	Neuraminidase	Influenza A virus	H1N1	IC50	1.6 µM
CCC(CC)[C@H](NC(C)=O)[C@@H]1[C@H](O)[C@@H](C(=O)O)C[C@H]1N=C(N)N	-	-	Influenza virus neuraminidase	Influenza A virus	WILD TYPE (152)	IC50	0.0014 µM
O=C(O)CCP(=O)(O)O	-	-	RNA-dependent RNA polymerase	Influenza virus	-	IC50	>500 µM
CC(C)(C)NC(=O)NC(=S)NC(=O)c1c(F)cccc1F	-	-	Neuraminidase	Influenza A virus	H1N1	IC50	4.2 µM

A second listing of 2 rows from above:

SMILES,tested at,read by,target,species,strain or isolate,endpoint,value
COCON1C(=O)/C(=C/c2ccc(OC)cc2)N(Cc2ccc(OC)cc2)[C@@H](Cc2ccccc2)C1=O,-,-,Transcriptase,Influenza A virus,-,IC50,>200 µM
CCC(CC)[C@H](NC(C)=O)[C@@H]1[C@H](O)[C@@H](C(=O)O)C[C@H]1N=C(N)N,-,-,Influenza virus neuraminidase,Influenza A virus,WILD TYPE (152),IC50,0.0014 µM

Percent inhibition refers to the dose given; in toxicity tests it is the harm to the cells. ICn is the concentration giving n% inhibition. Neighbouring rows are from separate reports.